# Screening data, single-dose tests

A: 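Whole-cell growth test on Mycobacterium tuberculosis, read after 3 days in glucose-containing 7H9 medium; the read-out is not stated. Tested at 500 µM. Higher reads as more growth inhibition (inferred: compounds with an IC50 in retests scored well above the rest). Of about 18,000 compounds tested this way, about 1,400 (7.9%) reached 50% or more in at least one test.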
B: 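Whole-cell growth test on Mycobacterium tuberculosis, read after 4 days in a medium based on cholesterol and the lipid DPPC; the read-out is not stated. Compounds at 500 µM. Direction is inferred from retests: higher values go with more growth inhibition. Of about 18,000 compounds tested this way, about 900 (5%) reached 50% or more in at least one test.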

Each number is a percent effect as filed.
The controls that fix the scale are not given in the record; negative values are as filed.
The entries come from a sample that favours strong results.

- Cc1nnc(CNC(=O)NCC(F)(F)F)n1C1CC1 | A: 46.66%
- CCc1nc2n(n1)CCCC2N (configuration not stated) | B: -33.09%
- CN(CCCNC(=O)c1cnccn1)CC(F)(F)F | B: 26.61%
- CN1CCCN(C(=O)c2cc3c(s2)CCCC3)CC1 | A: 57.54%
- CC(O)Cn1cccn1 (configuration not stated) | A: 7.891%; B: 3.993%
- Cn1cc(C2CCCCN2)cn1 (configuration not stated) | A: -5.351%
- CNC(=O)c1cccc(NCCN2CCCC(C)C2)n1 (configuration not stated) | B: -1.454%
- COCCC(N)c1ccco1 (configuration not stated) | A: -11.43%
- N#Cc1ccccc1C(=O)N1CCOC2(CCCC2)C1 | A: 31.09%
- CN(C(=O)C1CCOC1)c1ncc(Cl)cc1Cl (configuration not stated) | A: 2.315%
- CN(C)C1CCCN(C(=O)c2ccc(Br)cn2)C1 (configuration not stated) | A: 8.746%
- Cc1nc(C(=O)Nc2cnn(C)c2)ccc1C#N | B: -9.009%
- CCN(Cc1cc(C)n[nH]1)CC1CCCO1 (configuration not stated) | B: 9.33%
- O=C(NCC(O)c1cccs1)NC1CCOCC1 (configuration not stated) | A: -5.047%
- O=C(C1CCCN1c1ccncc1Cl)N1CCSCC1 (configuration not stated) | B: 4.762%
- CCC(O)(CC)C(C)(C)CN | A: 5.849%
- CC(=O)c1ccc(NC(=O)c2ncoc2C)nc1 | A: 8.991%
- Cc1cc(S(=O)(=O)N[C@@H]2COCC[C@H]2O)c(Cl)cc1F | B: -6.491%
- Cc1ccc(S(=O)(=O)Nc2ccc(C(N)=O)cc2)cc1 | A: 48.22%
- CN1C(=O)Cc2cc(NC(=O)c3cccn3C)ccc21 | A: 2.338%
- CC(C)(C)CNCCS(=O)(=O)N1CCOCC1 | A: 1.829%
- Cc1c(Br)cccc1C(=O)NCCCNS(C)(=O)=O | A: 15.17%
- Cc1[nH]ncc1C(=O)NCCCSCC(C)C | A: 57.05%
- O=C(c1cncc(-c2cn[nH]c2)n1)N1CCCCC1 | A: 12.02%
- O=C(CO)NC1CCCc2ccccc21 (configuration not stated) | A: 20.8%
- NC(=O)CN1C(=O)CC2(CCCCC2)CC1=O | A: -8.551%
- CC(C)c1nc(CN2CCn3ccnc3C2)no1 | A: 10.3%
- Cc1ccnc(NC(=O)C2=NN(C)C(=O)CC2)c1 | A: -7.699%
- CCOCCCC(=O)N(C)Cc1cnc(C)s1 | A: -0.9036%
- CCCN1CCCC(C(=O)Nc2cccc(C)n2)C1 (configuration not stated) | A: 11.84%
- COc1cccc(CN2CCS(=O)(=O)CC2)c1OC | B: 4.555%
- CCOC(=O)Cn1nnc2ccccc2c1=O | A: 52.11%; B: 49.74%
- CCOCn1cnc2sccc2c1=O | A: 2.813%
- CCC(NC(=O)Cc1ccccn1)c1nc(C)c[nH]1 (configuration not stated) | A: 6.322%
- COc1cccc(SCC(=O)N2CCOC(C)C2)c1 (configuration not stated) | A: 53.18%
- CN(C)C(CNC(=O)NCc1cc[nH]n1)c1cccs1 (configuration not stated) | A: 19.8%
- CC(C)[C@H]1CN(C(=O)c2ccoc2)C[C@@H]1N | A: 3.295%
- Cc1cc(S(N)(=O)=O)ccc1CN | A: 6.896%
- CN(Cc1ccc(Br)o1)C(=O)c1nccnc1N | A: 60.7%
- COC(=O)c1[nH]cc(-c2ccccc2)c1N | A: 58.36%; B: 53.68%
- CC(C)[C@H](N)C(=O)N1CCOC2(CCOCC2)C1 | A: 2.558%
- CCNC(=O)C(C)NC(=O)N1CCc2ccc(Cl)cc21 (configuration not stated) | A: 5.433%
- NC(CO)c1c(Cl)cccc1Cl (configuration not stated) | B: 0.02032%

5 of the entries, repeated:

CN(C(=O)C1CCOC1)c1ncc(Cl)cc1Cl (configuration not stated) gave A: 2.315%.
CCOCCCC(=O)N(C)Cc1cnc(C)s1 gave A: -0.9036%.
O=C(CO)NC1CCCc2ccccc21 (configuration not stated) gave A: 20.8%.
CN1C(=O)Cc2cc(NC(=O)c3cccn3C)ccc21 gave A: 2.338%.
CC(C)(C)CNCCS(=O)(=O)N1CCOCC1 gave A: 1.829%.

The values are deposited in ChEMBL (CHEMBL3988442, “University of Dundee, Small-Polar-MMV Screening Library” (2021)).